Data reported in patent publication US20240050395A1 (priority 2020, published 2024).

Legend:
[1] = system: HT-29; conditions: read-out: AbsIC50; Colon cancer, cultured for 72 h
[2] = system: Daudi; conditions: Leukemia, cultured for 72 h
[3] = system: U-2OS; conditions: read-out: AbsIC50; Osteosarcoma, cultured for 72 h
[4] = system: SK-OV-3; conditions: read-out: AbsIC50; Ovarian cancer, cultured for 72 h
[5] = system: tumor cells; conditions: read-out: effective inhibition concentration; most tumor cells, 72 h
[6] = system: HCC827; conditions: Lung cancer, cultured for 72 h
[7] = system: ZR-75-1; conditions: Breast ductal carcinoma, cultured for 72 h
[8] = system: LOVO; conditions: Colon cancer, cultured for 72 h
[9] = system: HepG2; conditions: Liver cancer, cultured for 72 h
[10] = system: HCoV229E

Row | Structure (SMILES) | IC50 [1] [nM] | IC50 ([2]; read-out: AbsIC50) [nM] | IC50 [3] [nM] | IC50 [4] [nM] | IC50 [5] [nM] | IC50 [6] [nM] | IC50 [2] [nM] | IC50 [7] [nM] | IC50 [8] [nM] | IC50 [9] [nM] | EC50 [10] [nM]
1 | [2H]c1ccc([As]=O)cc1 (centres unmarked) | > 200 | 97.7 | 71.2 | > 200 | > 200 |  |  |  |  |  | 
2 | O=[As]c1ccccc1 (centres unmarked) |  |  |  |  |  | 181 | 63.4 | 28.5 | > 200 | 105 | 55.4

Read-outs that look alike come from different tables or passages of the source.
